# Results reported in ChEMBL document CHEMBL5606460, “ASAP - DENV-2 NS2B-NS3 protease fluorescence single point” (2024).
# Amino acid sequences for entries named in this document (tags omitted).
# UniProt P29990, whole entry: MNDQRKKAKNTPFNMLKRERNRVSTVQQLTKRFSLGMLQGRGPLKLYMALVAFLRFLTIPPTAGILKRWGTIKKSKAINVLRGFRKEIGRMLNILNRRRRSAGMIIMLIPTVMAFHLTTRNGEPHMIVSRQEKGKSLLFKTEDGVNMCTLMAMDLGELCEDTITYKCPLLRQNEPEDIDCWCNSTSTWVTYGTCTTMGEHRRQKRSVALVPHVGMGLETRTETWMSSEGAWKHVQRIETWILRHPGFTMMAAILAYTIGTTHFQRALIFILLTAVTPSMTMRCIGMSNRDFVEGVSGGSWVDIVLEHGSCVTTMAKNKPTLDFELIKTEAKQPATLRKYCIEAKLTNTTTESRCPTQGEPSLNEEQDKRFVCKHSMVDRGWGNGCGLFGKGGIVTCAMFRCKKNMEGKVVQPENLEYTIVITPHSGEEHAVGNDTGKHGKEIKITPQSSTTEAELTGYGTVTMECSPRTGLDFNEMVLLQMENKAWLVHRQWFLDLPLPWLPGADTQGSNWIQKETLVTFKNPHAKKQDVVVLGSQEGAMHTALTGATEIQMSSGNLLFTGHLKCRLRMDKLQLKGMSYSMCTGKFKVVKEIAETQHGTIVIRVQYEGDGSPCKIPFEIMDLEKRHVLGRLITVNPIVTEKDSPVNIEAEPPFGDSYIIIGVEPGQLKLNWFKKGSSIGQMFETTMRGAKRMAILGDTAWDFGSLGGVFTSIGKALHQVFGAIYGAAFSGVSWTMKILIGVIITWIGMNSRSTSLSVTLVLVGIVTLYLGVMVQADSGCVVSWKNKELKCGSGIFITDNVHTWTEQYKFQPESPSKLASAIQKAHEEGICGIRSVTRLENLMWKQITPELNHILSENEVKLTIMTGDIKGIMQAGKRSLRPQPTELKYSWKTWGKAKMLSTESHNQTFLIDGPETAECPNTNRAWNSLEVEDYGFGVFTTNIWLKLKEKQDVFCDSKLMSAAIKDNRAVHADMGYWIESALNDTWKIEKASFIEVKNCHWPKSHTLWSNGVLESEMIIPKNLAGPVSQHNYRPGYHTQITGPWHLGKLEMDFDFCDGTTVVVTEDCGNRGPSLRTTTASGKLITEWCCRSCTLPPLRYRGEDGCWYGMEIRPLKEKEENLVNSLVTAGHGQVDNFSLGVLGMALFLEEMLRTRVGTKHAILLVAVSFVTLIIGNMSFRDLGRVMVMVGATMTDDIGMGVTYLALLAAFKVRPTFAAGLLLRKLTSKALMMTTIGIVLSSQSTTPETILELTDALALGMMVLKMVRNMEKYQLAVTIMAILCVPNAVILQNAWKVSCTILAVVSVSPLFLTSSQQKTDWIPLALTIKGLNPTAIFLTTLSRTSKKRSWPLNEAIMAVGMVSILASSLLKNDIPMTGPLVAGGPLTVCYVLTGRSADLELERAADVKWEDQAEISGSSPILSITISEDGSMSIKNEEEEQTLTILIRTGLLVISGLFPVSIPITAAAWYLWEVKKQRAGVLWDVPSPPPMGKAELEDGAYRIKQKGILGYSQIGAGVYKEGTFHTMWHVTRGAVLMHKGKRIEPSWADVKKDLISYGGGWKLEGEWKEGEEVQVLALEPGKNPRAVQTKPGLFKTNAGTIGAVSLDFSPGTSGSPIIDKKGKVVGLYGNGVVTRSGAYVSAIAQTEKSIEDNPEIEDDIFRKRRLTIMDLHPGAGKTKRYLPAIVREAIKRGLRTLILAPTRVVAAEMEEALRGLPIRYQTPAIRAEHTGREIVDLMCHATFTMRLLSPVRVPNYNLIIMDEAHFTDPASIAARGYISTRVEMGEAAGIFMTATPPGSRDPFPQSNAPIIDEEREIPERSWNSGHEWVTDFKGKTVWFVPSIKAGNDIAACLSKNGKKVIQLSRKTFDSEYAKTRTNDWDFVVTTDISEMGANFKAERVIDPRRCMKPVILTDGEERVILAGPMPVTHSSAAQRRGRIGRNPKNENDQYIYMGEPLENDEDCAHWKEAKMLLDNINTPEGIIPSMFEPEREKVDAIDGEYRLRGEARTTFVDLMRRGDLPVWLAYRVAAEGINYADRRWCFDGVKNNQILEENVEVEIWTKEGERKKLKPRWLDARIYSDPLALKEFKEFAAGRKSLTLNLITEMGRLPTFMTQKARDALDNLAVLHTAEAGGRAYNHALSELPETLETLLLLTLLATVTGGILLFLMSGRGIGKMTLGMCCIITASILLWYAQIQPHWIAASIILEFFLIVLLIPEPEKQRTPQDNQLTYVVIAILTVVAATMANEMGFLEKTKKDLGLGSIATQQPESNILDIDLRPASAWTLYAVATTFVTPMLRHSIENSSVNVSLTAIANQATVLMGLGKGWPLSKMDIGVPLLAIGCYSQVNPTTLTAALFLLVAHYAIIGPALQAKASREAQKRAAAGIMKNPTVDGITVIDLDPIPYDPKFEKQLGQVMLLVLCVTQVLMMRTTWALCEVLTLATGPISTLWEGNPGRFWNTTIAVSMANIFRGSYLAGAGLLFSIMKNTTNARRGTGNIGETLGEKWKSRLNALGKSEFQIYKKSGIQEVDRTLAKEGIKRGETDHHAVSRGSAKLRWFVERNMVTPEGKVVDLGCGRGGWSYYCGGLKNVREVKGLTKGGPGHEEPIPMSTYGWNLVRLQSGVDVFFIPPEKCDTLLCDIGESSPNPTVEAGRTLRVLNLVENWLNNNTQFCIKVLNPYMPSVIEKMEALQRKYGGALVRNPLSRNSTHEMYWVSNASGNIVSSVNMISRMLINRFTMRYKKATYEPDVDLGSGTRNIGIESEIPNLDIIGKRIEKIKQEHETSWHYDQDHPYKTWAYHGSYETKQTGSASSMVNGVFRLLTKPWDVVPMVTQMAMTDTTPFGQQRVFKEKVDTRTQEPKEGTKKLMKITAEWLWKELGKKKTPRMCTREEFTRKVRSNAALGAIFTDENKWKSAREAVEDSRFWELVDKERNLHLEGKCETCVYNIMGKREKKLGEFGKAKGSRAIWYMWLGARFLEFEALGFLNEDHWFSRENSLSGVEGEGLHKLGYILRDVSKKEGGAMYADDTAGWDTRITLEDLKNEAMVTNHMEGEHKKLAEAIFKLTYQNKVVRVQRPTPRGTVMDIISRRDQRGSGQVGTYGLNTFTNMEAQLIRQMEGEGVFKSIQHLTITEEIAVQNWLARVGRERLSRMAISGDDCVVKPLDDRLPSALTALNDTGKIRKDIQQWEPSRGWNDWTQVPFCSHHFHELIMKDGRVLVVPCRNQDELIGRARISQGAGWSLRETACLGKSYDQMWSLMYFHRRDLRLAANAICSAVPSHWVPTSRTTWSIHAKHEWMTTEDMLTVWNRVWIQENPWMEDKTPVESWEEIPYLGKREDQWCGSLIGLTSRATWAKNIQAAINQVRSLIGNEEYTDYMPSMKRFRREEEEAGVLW
# The entries are a selection whose mix differs from that of the whole data set.
# Target: Genome polyprotein (dengue virus type 2) (UniProt P29990)
# Test: Functional biochemical assay to identify treatments for viral infectious disease that targets Dengue virus type 2 NS2B-NS3 protease. Utilizing a direct enzyme activity measurement method, reading the fluorescence intensity is used to characterize the relative potency of inhibitors as % inhibition. …
smiles,measurement,setting,value
O=c1[nH]c2ccccc2n1C1CCN(Cc2c[nH]c3ccccc23)CC1,inhibition,"Thailand/16681/1984, Concentration 49.5 uM, Number of replicates 2.0, Standard deviation 0.9681987948382585 %",1.5%
same,inhibition,"Thailand/16681/1984, Concentration 99.01 uM, Number of replicates 2.0, Standard deviation 0.6770795118460521 %",3.19%
same,inhibition,"Thailand/16681/1984, Concentration 198.0 uM, Number of replicates 2.0, Standard deviation 0.9570655783635603 %",5.23%
